Results of unrelated studies side by side (data: NIAID ChemDB).

Common to all: tests in culture; agent: Aspergillus niger; endpoint: MIC100

MIC50, MIC90 and the like: level of inhibition, or share of isolates inhibited.

Nc1[nH]c(=S)nc2oc3c(Br)cc(Br)cc3c(=O)c12 ; strain: MTCC 282 ; read by: broth dilution ; value: 1000 µg/mL
Cc1ccccc1N1C(=O)C(Cl)C12C(=O)Nc1c(Br)cc(Br)cc12 ; strain: MTCC 343 ; value: 17 µg/mL
c1csc(-c2n[nH]c(COc3ncnc4ccccc34)n2)c1 ; strain: MTCC 282 ; value: 6.25 µg/mL
O=C1C(Cl)C2(C(=O)Nc3c(Br)cc(Br)cc32)N1c1ccccc1 ; strain: MTCC 343 ; value: 14 µg/mL
O=c1ccc2c(ccc3nc(N4CCN(c5ccccc5F)CC4)sc32)o1 ; strain: MTCC 282 ; value: 200 µg/mL
Nc1ccc(S(=O)(=O)Nn2sc3ccccc3c2=O)cc1 ; strain: ATCC 6275 ; value: >100 µg/mL
COc1ccc(-c2n[nH]c(COc3ncnc4ccccc34)n2)cc1 ; strain: MTCC 282 ; value: 6.25 µg/mL
Cc1ccc2c(=O)c3c(N)[nH]c(=S)nc3oc2c1 ; strain: MTCC 282 ; read by: broth dilution ; value: 500 µg/mL
CC(=O)Nc1ccc(S(=O)(=O)N(n2sc3ccccc3c2=O)S(=O)(=O)c2ccc(NC(C)=O)cc2)cc1 ; strain: ATCC 6275 ; value: >100 µg/mL
Cc1ccc(-c2nc3ccccc3c(=O)n2-c2ccc(C(=O)NN3C(=O)/C(=C/c4c(Cl)cccc4Cl)SC3c3ccc(F)cc3)cc2)cc1 ; strain: MTCC 282 ; value: 500 µg/mL
CC(=O)Nc1ccc(OCC(=O)N2N=C(c3nc4ccccc4[nH]3)CC2c2ccc(Cl)cc2)cc1 ; strain: MTCC 282 ; value: 50 µg/mL
O=C1C(Cl)C2(C(=O)Nc3ccccc32)N1c1ccccc1[N+](=O)[O-] ; strain: MTCC 343 ; value: 17 µg/mL
COc1ccc(-c2n[nH]c(COc3nc(C)nc4ccccc34)n2)cc1 ; strain: MTCC 282 ; value: 12.5 µg/mL
Cc1ccc(-c2nc3ccccc3c(=O)n2-c2ccc(C(=O)NN3C(=O)/C(=C/c4ccc(N(C)C)cc4)SC3c3ccc(F)cc3)cc2)cc1 ; strain: MTCC 282 ; value: 1000 µg/mL
COc1ccc(N2CCN(c3nc4ccc5oc(=O)ccc5c4s3)CC2)cc1 ; strain: MTCC 282 ; value: 100 µg/mL
O=C1C(Cl)C2(C(=O)Nc3ccccc32)N1c1ccc([N+](=O)[O-])cc1 ; strain: MTCC 343 ; value: 24 µg/mL
COc1ccc(CN2CCN(c3nc4ccc5oc(=O)ccc5c4s3)CC2)c(OC)c1OC ; strain: MTCC 282 ; value: 62.5 µg/mL
O=C1CSC(N2N=C(c3ccc(F)cc3)CC2c2cc3ccccc3nc2Cl)=N1 ; strain: MTCC 282 ; value: 50 µg/mL
CC1CC(c2ccncc2)Nc2ccc(Br)cc21 ; strain: ATCC 9029 ; value: >250 µg/mL
Cc1ccc(N2C(=O)C(Cl)C23C(=O)Nc2c(Br)cc(Br)cc23)cc1 ; strain: MTCC 343 ; value: >100 µg/mL
Nc1[nH]c(=S)nc2oc3ccccc3c(=O)c12 ; strain: MTCC 282 ; read by: broth dilution ; value: 500 µg/mL
CC(C)N1CCN(c2nc3ccc4c(ccc(=O)n4C)c3s2)CC1 ; strain: MTCC 282 ; value: 100 µg/mL
CC(=O)Nc1ccc(OCC(=O)N2N=C(c3nc4ccccc4[nH]3)CC2c2ccccc2Br)cc1 ; strain: MTCC 282 ; value: 100 µg/mL
Cc1ccc(-c2nc3ccccc3c(=O)n2-c2ccc(C(=O)NN3C(=O)/C(=C/c4ccc(F)cc4)SC3c3ccc(F)cc3)cc2)cc1 ; strain: MTCC 282 ; value: 50 µg/mL
CC(=O)Nc1ccc(S(=O)(=O)Nn2sc3ccc(C)cc3c2=O)cc1 ; strain: ATCC 6275 ; value: >100 µg/mL
O=c1ccc2c(ccc3nc(N4CCN(C(c5ccccc5)c5ccccc5)CC4)sc32)o1 ; strain: MTCC 282 ; value: 500 µg/mL
COc1cc(-c2n[nH]c(COc3nc(C)nc4ccccc34)n2)cc(OC)c1OC ; strain: MTCC 282 ; value: 12.5 µg/mL
CC(=O)Nc1ccc(OCC(=O)N2N=C(c3nc4ccccc4[nH]3)CC2c2ccccc2)cc1 ; strain: MTCC 282 ; value: 250 µg/mL
O=C1CSC(N2N=C(c3ccc([N+](=O)[O-])cc3)CC2c2cc3ccccc3nc2Cl)=N1 ; strain: MTCC 282 ; value: 25 µg/mL
CCC1/C=C/C=C/C=C/C=C/C(OC2OC(C)C(O)C(N)C2O)CC2OC(O)(CC(O)CC(O)C/C=C/C(=O)OC1C)CC(O)C2C(=O)O ; strain: CGMCC 3.6478 ; read by: broth dilution ; value: 2.83 µg/mL
Cc1ccc(-c2nc3ccccc3c(=O)n2-c2ccc(C(=O)NN3C(=O)/C(=C/c4ccc([N+](=O)[O-])cc4)SC3c3ccc(F)cc3)cc2)cc1 ; strain: MTCC 282 ; value: 500 µg/mL
O=C1CSC(N2N=C(c3ccccc3F)CC2c2cc3ccccc3nc2Cl)=N1 ; strain: MTCC 282 ; value: 250 µg/mL
CCN1CCN(c2nc3ccc4oc(=O)ccc4c3s2)CC1 ; strain: MTCC 282 ; value: 250 µg/mL
COc1ccc(C2CC(c3nc4ccccc4[nH]3)=NN2C(=O)COc2ccc(NC(C)=O)cc2)cc1 ; strain: MTCC 282 ; value: 250 µg/mL
O=C1CSC(N2N=C(c3cccc([N+](=O)[O-])c3)CC2c2cc3ccccc3nc2Cl)=N1 ; strain: MTCC 282 ; value: 100 µg/mL

Conditions beyond the fields shown may differ between rows.